Measured values from several laboratories, pooled; numbers as filed in NIAID ChemDB.

All rows: whole-cell or culture tests; organism: Aspergillus fumigatus

A number after MIC or MFC names an inhibition level or a share of isolates.

SMILES,endpoint,read by,strain,conditions,changes,dose,value
COc1ccc(C2=C(c3ccc(OCC(O)(Cn4cncn4)c4ccc(F)cc4F)cc3)C(=O)OC2)cc1,MIC50,broth dilution,ATCC 46645,-,-,-,8 µg/mL
CCOC(=O)C1C(c2cc3cc(OC)ccc3nc2Cl)C2=C(CCCC2=O)N(c2cccnc2)C1N,MIC99,broth dilution,MTCC 3008,-,-,-,500 µg/mL
O=C(/C=C/c1cccc([N+](=O)[O-])c1)OC1CCN(CC(O)(Cn2cncn2)c2ccc(F)cc2F)CC1,MIC80,broth dilution,0504656,-,-,-,0.487 µM
CC(C)C[C@H](N)C(=O)O,MFC100,broth dilution,MRCM 32208,-,-,-,>18000 µg/mL
C[C@@H](N1CCN(Cc2cn(Cc3ccc(C(F)(F)F)cc3)c3c(F)cccc23)CC1)[C@](O)(Cn1cncn1)c1ccc(F)cc1F,MIC80,resazurin,ATCC 16424,-,-,-,8 µg/mL
C[C@@H]([C@H](N)C(=O)N[C@H](C(=O)O)[C@H]1O[C@@H](n2ccc(=O)[nH]c2=O)[C@H](O)[C@@H]1O)[C@H](O)c1ccc(O)cn1,MFC,-,10AF,-,-,-,800 µg/mL
Cc1ccc(-n2cc(-c3ccc([N+](=O)[O-])cc3)c(-c3ccon3)n2)cc1,zone,agar diffusion / agar,-,-,-,2.5 mg/mL,14 mm
C[C@@H](N1CCN(Cc2cn(-c3ccc(F)cc3)c3ccccc23)CC1)[C@](O)(Cn1cncn1)c1ccc(F)cc1F,MIC80,resazurin,ATCC 16424,-,-,-,1 µg/mL
COc1ccc(C(O)Cn2ccnc2)cc1,inhibition,broth dilution,-,-,-,80 µg/mL,47%
C[C@@H](N1CCN(Cc2cn(Cc3ccc(Cl)cc3Cl)c3ccccc23)CC1)[C@](O)(Cn1cncn1)c1ccc(F)cc1F,MIC80,resazurin,ATCC 16424,-,-,-,16 µg/mL
O=c1cc(CO)occ1O,MIC99,agar,UAB680,-,-,-,>12800 µM
C[C@H]1[C@H](O)[C@@H](C)/C=C/C=C/C=C/C=C/C=C/C=C/C=C/[C@H](O[C@@H]2O[C@H](C)[C@@H](O)[C@H](N)[C@@H]2O)C[C@@H]2O[C@](O)(C[C@@H](O)C[C@@H](O)CC[C@H](O)[C@@H](O)C[C@@H](O)CC(=O)O[C@H]1C)C[C@H](O)[C@H]2C(=O)O,MIC90,-,150 clinical isolates,-,-,-,1 µg/mL
Cc1ccc(C(C)C)c(O)c1,MLC,-,F07,-,-,-,0.64 µg/mL
CCC(C)n1ncn(-c2ccc(N3CCN(c4ccc(OC[C@H]5CO[C@](Cn6cncn6)(c6ccc(Cl)cc6Cl)O5)cc4)CC3)cc2)c1=O,inhibition,broth dilution,AF293,-,sakA,8 µg/mL,99.92%
CCOC(=O)c1ccc(-c2nn(-c3ccccc3)cc2-c2ccc([N+](=O)[O-])cc2)nc1C,zone,agar diffusion / agar,-,-,-,1.25 mg/mL,0 mm
CCC(C)c1ccc(Cn2cc(CN3CCN([C@H](C)[C@](O)(Cn4cncn4)c4ccc(F)cc4F)CC3)c3ccccc32)cc1,MIC80,resazurin,ATCC 16424,-,-,-,32 µg/mL
O=C(CC1=Nc2ccccc2C1)OC1CCN(CC(O)(Cn2cncn2)c2ccc(F)cc2F)CC1,MIC80,broth dilution,0504656,-,-,-,8.078 µM
CCCCCOc1ccc(-c2ccc(-c3ccc(C(=O)N[C@H]4C[C@@H](O)[C@@H](O)NC(=O)[C@@H]5[C@@H](O)[C@@H](C)CN5C(=O)[C@H]([C@H](C)O)NC(=O)[C@H]([C@H](O)[C@@H](O)c5ccc(O)cc5)NC(=O)[C@@H]5C[C@@H](O)CN5C(=O)[C@H]([C@H](C)O)NC4=O)cc3)cc2)cc1,MFC,-,Isolate AF210,-,-,-,0.03 µg/mL
CCC(C)CC(C)CCCCCCCCC(=O)N[C@H]1C[C@@H](O)[C@H](NCCN)NC(=O)[C@@H]2[C@@H](O)CCN2C(=O)[C@H]([C@H](O)CCN)NC(=O)[C@H]([C@H](O)[C@@H](O)c2ccc(O)cc2)NC(=O)[C@@H]2C[C@@H](O)CN2C(=O)[C@H]([C@@H](C)O)NC1=O,Geometric mean MEC,-,26 isolates,-,-,-,0.29 µg/mL
N#CC1C(c2cc3ccccc3nc2Cl)C2=C(CCCC2=O)N(c2cccnc2)C1N,MIC99,broth dilution,MTCC 3008,-,-,-,>1000 µg/mL
CCN1CCC(O)(/C=C/c2ccc(Cl)cc2)C(C(=O)/C=C/c2ccc(Cl)cc2)C1,Mean MIC,-,20 strains,-,-,-,11.87 µM
O=C(/C=C/c1ccc(Cl)cc1Cl)OC1CCN(CC(O)(Cn2cncn2)c2ccc(F)cc2F)CC1,MIC80,broth dilution,0504656,-,-,-,1.865 µM
CCC(C)n1ncn(-c2ccc(N3CCN(c4ccc(OC[C@H]5CO[C@](Cn6cncn6)(c6ccc(Cl)cc6Cl)O5)cc4)CC3)cc2)c1=O,MLC50,-,-,-,-,-,2 µg/mL
C[C@@H](c1ncncc1F)[C@](O)(Cn1cncn1)c1ccc(F)cc1F,Geometric mean MFC,-,94 isolates,-,-,-,1.69 µg/mL
COC(=O)C1C(c2cc3cc(Cl)ccc3nc2Cl)C2=C(CCCC2=O)N(c2cccnc2)C1N,MIC99,broth dilution,MTCC 3008,-,-,-,500 µg/mL
COc1cc(C=O)cc(OC)c1OCC(O)(Cn1cncn1)c1ccc(F)cc1F,MIC50,broth dilution,ATCC 46645,-,-,-,128 µg/mL
CCN1CCC(O)(/C=C/c2ccc(OC)cc2)C(C(=O)/C=C/c2ccc(OC)cc2)C1,Mean MIC,-,20 strains,-,-,-,100 µM
COc1cc(C2=C(c3ccc(F)cc3)COC2=O)ccc1OCC(O)(Cn1cncn1)c1ccc(F)cc1F,MIC50,broth dilution,ATCC 46645,-,-,-,8 µg/mL
CC(C)CC(O)C(=O)O,MFC100,broth dilution / visual reading,MRCM 32221,-,-,-,36000 µg/mL
CC(=O)C1=NN(c2ccccc2)C2=Nc3nccc(-c4nn(-c5ccccc5)cc4-c4ccc([N+](=O)[O-])cc4)c3C(=O)C12,zone,agar diffusion / agar,-,-,-,2.5 mg/mL,11 mm
CCCC(=O)OC1CCN(CC(O)(Cn2cncn2)c2ccc(F)cc2F)CC1,MIC80,broth dilution,0504656,-,-,-,2.45 µM
C[C@H]1[C@H](O)[C@@H](C)/C=C/C=C/C=C/C=C/C=C/C=C/C=C/[C@H](O[C@@H]2O[C@H](C)[C@@H](O)[C@H](N)[C@@H]2O)C[C@@H]2O[C@](O)(C[C@@H](O)C[C@@H](O)CC[C@H](O)[C@@H](O)C[C@@H](O)CC(=O)O[C@H]1C)C[C@H](O)[C@H]2C(=O)O,MFC90,-,19 isolates,-,-,-,4 µg/mL
CN(C)/C=C/C(=O)c1nn(-c2ccccc2)cc1-c1ccc([N+](=O)[O-])cc1,zone,agar diffusion / agar,-,-,-,1.25 mg/mL,0 mm
Cc1ccc(C2=C(c3ccc(OCC(O)(Cn4cncn4)c4ccc(F)cc4F)cc3)C(=O)OC2)cc1,MIC50,broth dilution,ATCC 46645,-,-,-,4 µg/mL
CCCCCCCCC(=O)OC1CCN(CC(O)(Cn2cncn2)c2ccc(F)cc2F)CC1,MIC80,broth dilution,0504656,-,-,-,2.154 µM
COc1cc(O)c2c(c1)C(=O)c1c(cc3c(c1O)-c1c(cc(C)c(C(=O)NC(CO)C(=O)O)c1O)[C@H](OC1OC(C)C(O)C(OC4OCC(O)C(O)C4O)C1O)C3O)C2=O,Geometric mean MIC,-,35 isolates,-,-,-,8 µg/mL
COC(=O)C1C(c2cc3cc(OC)ccc3nc2Cl)C2=C(CCCC2=O)N(c2cccnc2)C1N,MIC99,broth dilution,MTCC 3008,-,-,-,>1000 µg/mL
COc1ccc(C(=O)Cn2ccnc2)cc1,inhibition,broth dilution,-,-,-,100 µg/mL,72%
C[C@@H](c1nc(-c2ccc(C#N)cc2)cs1)[C@](O)(Cn1cnnc1)c1ccc(F)cc1F,Mean MIC,-,50 strains,-,-,-,1.71 µg/mL
C[C@@H](N1CCN(Cc2cn(-c3ccc(F)cc3)c3cc(Cl)ccc23)CC1)[C@](O)(Cn1cncn1)c1ccc(F)cc1F,MIC80,resazurin,ATCC 16424,-,-,-,1 µg/mL
C[C@H]1[C@H](O)[C@@H](C)/C=C/C=C/C=C/C=C/C=C/C=C/C=C/[C@H](O[C@@H]2O[C@H](C)[C@@H](O)[C@H](N)[C@@H]2O)C[C@@H]2O[C@](O)(C[C@@H](O)C[C@@H](O)CC[C@H](O)[C@@H](O)C[C@@H](O)CC(=O)O[C@H]1C)C[C@H](O)[C@H]2C(=O)O,MFC50,-,35 isolates,-,-,-,8 µg/mL
O=C1OCC(c2cccs2)=C1c1ccc(OCC(O)(Cn2cncn2)c2ccc(F)cc2F)cc1,MIC50,broth dilution,ATCC 46645,-,-,-,8 µg/mL
CCCCCOc1ccc(-c2cc(-c3ccc(C(=O)N[C@H]4C[C@@H](O)[C@@H](O)NC(=O)[C@@H]5[C@@H](O)[C@@H](C)CN5C(=O)[C@H]([C@H](O)CC(N)=O)NC(=O)[C@H]([C@H](O)[C@@H](O)c5ccc(O)c(OS(=O)(=O)O)c5)NC(=O)[C@@H]5C[C@@H](O)CN5C(=O)[C@H]([C@@H](C)O)NC4=O)cc3)no2)cc1,MIC90,broth dilution,-,-,-,-,0.06 µg/mL
COc1cc(/C=C2\SC(=S)NC2=O)ccc1OCC(O)(Cn1cncn1)c1ccc(F)cc1F,MIC50,broth dilution,ATCC 46645,-,-,-,16 µg/mL
COc1ccc(C(=O)Cn2cncn2)cc1,inhibition,broth dilution,-,-,-,100 µg/mL,64%
Nc1ncccc1-c1cc(Cc2ccc(COc3ccccn3)cc2)no1,MIC50,broth dilution,IFM 51126,90% human serum,-,-,2 µg/mL
O=C1O/C(=C\c2ccc(OCC(O)(Cn3cncn3)c3ccc(F)cc3F)cc2)C(c2ccc(F)cc2F)=C1c1ccc(Cl)cc1,MIC50,broth dilution,ATCC 46645,-,-,-,4 µg/mL
C[C@@H](N1CCN(Cc2cn(Cc3ccc(Cl)cc3Cl)c3cc(Cl)ccc23)CC1)[C@](O)(Cn1cncn1)c1ccc(F)cc1F,MIC80,resazurin,ATCC 16424,-,-,-,8 µg/mL

Repeating the final 5 entries:

SMILES	endpoint	read by	strain	conditions	changes	dose	value
COc1cc(/C=C2\SC(=S)NC2=O)ccc1OCC(O)(Cn1cncn1)c1ccc(F)cc1F	MIC50	broth dilution	ATCC 46645	-	-	-	16 µg/mL
COc1ccc(C(=O)Cn2cncn2)cc1	inhibition	broth dilution	-	-	-	100 µg/mL	64%
Nc1ncccc1-c1cc(Cc2ccc(COc3ccccn3)cc2)no1	MIC50	broth dilution	IFM 51126	90% human serum	-	-	2 µg/mL
O=C1O/C(=C\c2ccc(OCC(O)(Cn3cncn3)c3ccc(F)cc3F)cc2)C(c2ccc(F)cc2F)=C1c1ccc(Cl)cc1	MIC50	broth dilution	ATCC 46645	-	-	-	4 µg/mL
C[C@@H](N1CCN(Cc2cn(Cc3ccc(Cl)cc3Cl)c3cc(Cl)ccc23)CC1)[C@](O)(Cn1cncn1)c1ccc(F)cc1F	MIC80	resazurin	ATCC 16424	-	-	-	8 µg/mL

Inhibition is in % at the dose shown (toxicity tests: loss of growth or viability). Conditions beyond the fields shown may differ between rows. An empty or dashed field is not shown. Zones are inhibition diameters on agar.